Anti-infective test results gathered from many reports (values: NIAID ChemDB through PubChem).

Shared fields: tests in culture

ECn is the concentration giving n% inhibition of infection, replication or growth.

compound,measure,cells,organism,tested at,method,strain,conditions,value
CN(Cc1ccc(F)cc1)C(=O)c1c[n+]2c(cn1)CN=C2c1ccc(C(F)(F)F)cc1,EC50,,Plasmodium yoelii,,SYBR Green,,,>10 µM
CCN(CC)CCN1C(=O)c2ccccc2NC1c1ccccc1F,EC50,,Plasmodium berghei,,luciferase,ANKA,,>20 µM
Cc1ccc(N=c2ccn(CCCN3CCCCC3)c3cc(Cl)ccc23)cc1,EC50,Huh7,Plasmodium berghei,,luciferase,,,>1 µM
CCCCN1C(=O)c2ccccc2NC1c1ccc(OC)cc1,EC50,,Plasmodium berghei,,luciferase,ANKA,,>20 µM
CC[C@H]1OC(=O)[C@H](C)[C@@H](OC2C[C@@](C)(OC)[C@@H](O)[C@H](C)O2)[C@H](C)[C@@H](OC2O[C@H](C)C[C@H](N(C)C)[C@H]2O)[C@](C)(OC2C[C@@H](O)[C@H](O)[C@H](C)O2)C[C@@H](C)C(=O)[C@H](C)[C@@H](O)[C@]1(C)O,EC50,RBC,Plasmodium falciparum,,fluorescence,W2 Mef,48 h,58.6 µM
CCO/C(=N/NC(=O)NC)C(C)(O)c1ccc2ccccc2c1,inhibition,,Plasmodium falciparum,5 µM,hypoxanthine uptake / radiometric,3D7,,40%
NC1=Nc2ccc(Cl)cc2C1(O)c1ccccc1,EC50,,Plasmodium spp.,,fluorescence,PK H1,,336 nM
C=C[C@H]1CN2CC[C@H]1C[C@H]2[C@H](O)c1ccnc2ccc(OC)cc12,inhibition,,Plasmodium falciparum,0.016 µg/mL,,W2,24 h,71%
Clc1ccc2c(=Nc3ccccc3)ccn(CCCN3CCCCC3)c2c1,EC50,Huh7,Plasmodium berghei,,luciferase,,,>1 µM
CC[C@H]1OC(=O)[C@H](C)[C@@H](OC2C[C@@](C)(OC)[C@@H](O)[C@H](C)O2)[C@H](C)[C@@H](OC2O[C@H](C)C[C@H](N(C)C)[C@H]2O)[C@](C)(O)C[C@@H](C)CN(C)[C@H](C)[C@@H](O)[C@]1(C)O,EC50,RBC,Plasmodium falciparum,,fluorescence,3D7,48 h,18.2 µM
CCN(CC)CCN1C(=O)c2ccccc2NC1c1ccc(N(C)C)cc1,EC50,,Plasmodium berghei,,luciferase,ANKA,,1 µM
CCN(CC)CCCCn1ccc(=Nc2ccc(-c3ccccc3)cc2)c2ccc(C(F)(F)F)cc21,EC50,Huh7,Plasmodium berghei,,luciferase,,,>1 µM
CCN(CC)CCN1C(=O)c2ccccc2NC1c1ccc2c(c1)OCO2,EC50,,Plasmodium berghei,,luciferase,ANKA,,2.3 µM
CCOC(=O)N/N=C(/OCC)C(C)(O)c1ccc2ccccc2c1,inhibition,,Plasmodium falciparum,5 µM,hypoxanthine uptake / radiometric,3D7,,83%
CCN(CC)CCN1C(=O)c2ccccc2NC1c1ccc(OC)c(COc2cc(C(C)C)c(Cl)cc2C)c1,EC50,,Plasmodium berghei,,luciferase,ANKA,,5.9 µM
FC(F)(F)c1ccc2c(=Nc3ccc(-c4ccccc4)cc3)ccn(CCN3CCCC3)c2c1,EC50,Huh7,Plasmodium berghei,,luciferase,,,>1 µM
CCN(CC)CCN1C(=O)c2ccccc2NC1c1ccc(Cl)cc1Cl,EC50,,Plasmodium berghei,,luciferase,ANKA,,>20 µM
CCNC(=S)N/N=C(/OCC)C(C)(O)c1ccc2ccccc2c1,inhibition,,Plasmodium falciparum,5 µM,hypoxanthine uptake / radiometric,3D7,,7%

Repeating the final 3 entries:

compound | measure | cells | organism | tested at | method | strain | conditions | value
FC(F)(F)c1ccc2c(=Nc3ccc(-c4ccccc4)cc3)ccn(CCN3CCCC3)c2c1 | EC50 | Huh7 | Plasmodium berghei |  | luciferase |  |  | >1 µM
CCN(CC)CCN1C(=O)c2ccccc2NC1c1ccc(Cl)cc1Cl | EC50 |  | Plasmodium berghei |  | luciferase | ANKA |  | >20 µM
CCNC(=S)N/N=C(/OCC)C(C)(O)c1ccc2ccccc2c1 | inhibition |  | Plasmodium falciparum | 5 µM | hypoxanthine uptake / radiometric | 3D7 |  | 7%

An empty or dashed field is not shown. Rows are shuffled and stem from different studies. Percent inhibition refers to the dose given; in toxicity tests it is the harm to the cells.